Where two headings read alike, the source gives them in different places.
Legend:
[1] = biological target: VSV
[2] = biological target: pVSV-loaded H-2 K^bm11 (mouse); experiment: flow cytometry on peptide-loaded T2 K^bm11 cells
[3] = biological target: VSV; remark: listed apart in the source

Substance: mAb 30.5.7 (antibody)
- Mean Channel Fluorescence [1]: 334

Substance: soluble divalent 2C TCR/Ig (from UniProt A2KF29)
- MCF [2]: 16
- Mean Channel Fluorescence [3]: 11

Reference: patent US20110243967A1
